Laboratory results reported in paper PMC5864733 (Nature Communications, 2018).

Target: T1, CsrA (residues 1-61), GST tag removed (enteropathogenic E. coli (EPEC) O127:H6 …, UniProt P69913 1-61)
T1 construct: also called WT CsrA; native CsrA
Assay: crystal structure
Conditions: both partners purified

B1: CsrA-Cdel (residues 1-44) (domain or fragment)
chain: MLILTRRVGETLMIGDEVTVTVLGVKGNQVRIGVNAPKEVSVHR
notes: source: E. coli BL21(DE3), purified (GST column, gel filtration)
Does B1 bind?
Result: binds
